Pooled drug test results. Numbers come from NIAID ChemDB, via PubChem.

Shared fields: growth or infection tests; organism: Rhinovirus; method: plaque count; endpoint: EC50

An empty or dashed field is not shown. ECn: concentration that inhibits the pathogen or its effect by n%. Rows are shuffled and stem from different studies.

| SMILES | cell line | strain or isolate | value |
|---|---|---|---|
| O=C(/C=C(\O)c1ccccc1O)/C=C/c1ccccc1 | HeLa | Serotype 1B | 20.59 µM |
| CN(C)c1nc(C(F)(F)F)nc2c1ncn2Cc1ccc([N+](=O)[O-])cc1 | M-HELA | Serotype 5 | >10 µM |
| CC(C)S(=O)(=O)n1c(N)nc2ccc(C(C(N)=O)c3ccc(F)cc3F)cc21 | HeLa | 1059 (serotype 14) | 0.05 µg/mL |
| N=C(N)c1ccc2c(c1)CCC(c1ccccc1)O2 | HeLa | Serotype 1B | 8 µM |
| CON[C@H](C(=O)N[C@@H](CC(C)C)C(=O)N[C@@H](Cc1ccccc1)C(=O)C(=O)/C=C/[C@H](CCC(N)=O)NC(=O)OC(C)(C)C)C(C)C | HeLa | TYPE 14 | 0.74 µg/mL |
| CN(C)c1nc(C(F)(F)F)nc2c1ncn2Cc1cccc(F)c1 | M-HELA | TYPE 1B | 0.03 µM |
| CCOC(=O)/C=C/[C@H](CCC(N)=O)NC(=O)OC(C)(C)C | HeLa | TYPE 14 | >10 µg/mL |
| Cc1ccc(Cn2cnc3c(N(C)C)nc(C(F)(F)F)nc32)cc1 | M-HELA | TYPE 14 | 1.2 µM |
| N=C(N)c1ccc(C2CCc3cc(C(=N)N)ccc3O2)cc1 | HeLa | Serotype 1B | 22.4 µM |
| O=c1c(Cc2ccc(Cl)cc2)coc2ccccc12 | HeLa | TYPE 1B | 0.2 µM |
| O=C(/C=C(\O)c1ccccc1O)/C=C/c1ccc([N+](=O)[O-])cc1 | HeLa | Serotype 14 | >6.25 µM |
| O=C(O)c1ccc(C2CC(=O)c3ccccc3O2)cc1 | OHIO HELA | TYPE 1B | 13.79 µM |
| CN(C)c1ncnc2c1ncn2Cc1ccccc1NC(=O)C(N)Cc1ccccc1 | M-HELA | Serotype 1B | >50 µM |
| CCOC(=O)/C=C/[C@H](CCC(N)=O)NC(=O)[C@H](Cc1ccccc1)NC(=O)OC(C)(C)C | HeLa | TYPE 14 | >10 µg/mL |
| COc1ccc(CC2COc3cc(OC)cc(OC)c3C2=O)cc1 | HeLa | TYPE 1B | >6.25 µM |
| COc1ccc(Cn2cnc3c(N(C)C)nc(C(F)(F)F)nc32)cc1C | M-HELA | Serotype 1B | 0.2 µM |
| N=C(N)c1ccc(C2CCc3ccccc3O2)cc1 | HeLa | Serotype 1B | 0.45 µM |
| CN(C)c1ncnc2c1ncn2Cc1ccc(NC(=O)C(N)Cc2ccccc2)cc1 | M-HELA | Serotype 1B | >50 µM |
| COc1ccc(OCCCCCCn2ccnc2)c(Cl)c1 | HeLa | TYPE 28 | 20.4 µM |
| CNC(=O)/C=C(\c1ccccc1)c1ccc2nc(N)c(-c3ccc(F)cc3C(F)(F)F)n2c1 | H-HELA | TYPE 14 | 0.44 µg/mL |
| CN(C)c1nnc2c3ccccc3n(C)c2n1 | WI-38 | 1059 | 100 µg/mL |
| O=C(O)c1ccc(-c2cc(=O)c3cc(Cl)ccc3o2)cc1 | OHIO HELA | TYPE 1B | >12.5 µM |
| Cc1cc(CCCCCOc2c(C)cc(-c3nnc(C)o3)cc2C)on1 | HeLa | serotype 2 1A 1B 6 14 21 22 15 25 30 50 67 89 86 41 | 0.053 µg/mL |
| CSCCCN1C(=O)Cc2ccccc2C1=O | HeLa | Serotype 14 | 19.6 µM |
| Cn1c(O)c(N=NC(N)=S)c2ccccc21 | WI-38 | 1059 | 11 µg/mL |
| CSCCCN1C(=O)c2ccccc2C(CC(=O)c2ccccc2)C1=O | HeLa | Serotype 14 | 27.7 µM |
| CC(=O)Nc1cccc(Nc2nc(Cl)nc3c2ncn3Cc2ccccc2)c1 | - | Serotype 5 | 3.6 µM |
| CN(C)c1nc(C(F)(F)F)nc2c1ncn2Cc1ccc(F)cc1 | M-HELA | Serotype 1B | 0.05 µM |
| CS(=O)(=O)CCCN1C(=O)c2ccccc2C(C(=O)c2ccccc2)C1=O | HeLa | Serotype 14 | 27.3 µM |
| CN(C)c1ncnc2c1ncn2Cc1cccc(NC(=O)C(Cc2ccccc2)NC(=O)OCc2ccccc2)c1 | M-HELA | Serotype 1B | >50 µM |
| Fc1cccc(Cn2cnc3c(Nc4cccc(F)c4)nc(C(F)(F)F)nc32)c1 | M-HELA | Serotype 50 | 3.8 µM |
| Cn1c2ccccc2c2nnc(NCCC(C)(C)O)nc21 | WI-38 | 33342 | 20 µg/mL |
| CNC(=O)C(c1cccc(F)c1)c1ccc2nc(N)n(S(=O)(=O)N3CCOCC3)c2c1 | HeLa | 1059 (serotype 14) | 0.05 µg/mL |
| Cc1cc(CCCOc2c(C)cc(-c3nnc(C)o3)cc2C)on1 | HeLa | serotype 2 1A 1B 6 14 21 22 15 25 30 50 67 89 86 41 | 0.026 µg/mL |
| CCON[C@H](C(=O)N[C@@H](CC(C)C)C(=O)N[C@@H](Cc1ccccc1)C(=O)C(=O)/C=C/[C@H](CCC(N)=O)NC(=O)OC(C)(C)C)C(C)C | HeLa | TYPE 14 | 0.41 µg/mL |
| COc1ccc(/C=C2\COc3cc(OC)cc(OC)c3C2=O)cc1 | HeLa | TYPE 1B | >6.25 µM |
| CCOC(=O)/C=C/[C@H](CCC(N)=O)NC(=O)OCc1ccccc1 | HeLa | TYPE 14 | >10 µg/mL |
| CNC(=O)/C=C(\c1ccccc1)c1ccc2nc(N)c(SC(C)C)n2c1 | H-HELA | TYPE 14 | 0.17 µg/mL |
| CN(C)c1ncnc2c1ncn2Cc1ccccc1NC(=O)C(Cc1ccccc1)NC(=O)OCc1ccccc1 | M-HELA | Serotype 1B | >50 µM |
| COc1ccc(Cc2coc3ccccc3c2=O)cc1 | HeLa | TYPE 14 | 15.37 µM |
| O=C(O)c1ccc(-c2oc3ccccc3c(=O)c2O)cc1 | OHIO HELA | TYPE 1B | 12.1 µM |
| Cn1c2ccc(Cl)cc2c2nnc(NCCCO)nc21 | WI-38 | 33342 | 45 µg/mL |
| O=c1c(Cc2ccccc2)coc2ccccc12 | HeLa | TYPE 1B | 4.64 µM |
| COC(=O)c1ccc(-c2oc3ccccc3c(=O)c2OC)cc1 | OHIO HELA | TYPE 1B | >25 µM |
| Cc1cc(CCCCCOc2c(Cl)cc(C3=NCCO3)cc2Cl)on1 | HeLa | TYPE 66 | 0.2 µg/mL |
| Clc1ccc(C2CCc3ccccc3O2)c(Cl)c1 | HeLa | TYPE 1B | 0.025 µM |
| CC(C)CC(NC(=O)Oc1ccccc1)C(=O)Nc1cccc(Cn2cnc3c(N(C)C)ncnc32)c1 | M-HELA | Serotype 1B | >50 µM |
| COCCCNc1nnc2c3ccccc3n(C)c2n1 | WI-38 | HGP | 220 µg/mL |
| CCCc1cc(CCCOc2c(C)cc(-c3nnc(C)o3)cc2C)on1 | HeLa | serotype 2 1A 1B 6 14 21 22 15 25 30 50 67 89 86 41 | 0.036 µg/mL |
| CN(C)c1nc(Cl)nc2c1ncn2Cc1ccc(Cl)cc1 | M-HELA | Serotype 13 | >5 µM |
| Cc1ccc(/C=C/C(=O)/C=C(\O)c2ccccc2O)cc1 | HeLa | Serotype 14 | 17.52 µM |
| CCOC(=O)CCCN1C(=O)c2ccccc2C(C(=O)c2ccccc2)C1=O | HeLa | Serotype 14 | 15.8 µM |
| CC(C)S(=O)(=O)n1c(N)nc2ccc(C(C(N)=O)c3ccc(F)c(F)c3)cc21 | HeLa | 1059 (serotype 14) | 0.05 µg/mL |
| CON[C@@H](Cc1ccccc1)C(=O)C(=O)/C=C/[C@H](CCS(C)(=O)=O)NC(=O)OCc1ccccc1 | HeLa | TYPE 14 | >10 µg/mL |
| Cc1ccc(Cn2cnc3c(N(C)C)nc(C(F)(F)F)nc32)c(C)c1 | M-HELA | TYPE 1B | 0.11 µM |
| CON[C@H](C(=O)N[C@@H](CC(C)C)C(=O)N[C@@H](Cc1ccccc1)C(=O)C(=O)/C=C/[C@H](CCS(C)(=O)=O)NC(=O)OC(C)(C)C)C(C)C | HeLa | TYPE 14 | >10 µg/mL |
| N#Cc1ccc(C2COc3ccc(C#N)cc3C2)cc1 | HeLa | Serotype 1B | 14.4 µM |
| CN(C)c1ccc(Cn2cnc3c(N(C)C)nc(C(F)(F)F)nc32)cc1 | M-HELA | Serotype 21 | >8 µM |
| N=C(N)c1ccc(C2=Cc3cc(C(=N)N)ccc3OC2)cc1 | HeLa | Serotype 1B | 12.8 µM |
| CNC(=O)/C=C(\c1ccccc1)c1ccc2nc(N)c(I)n2c1 | H-HELA | TYPE 14 | >3.2 µg/mL |
| N=C(N)c1ccc(C2=Cc3ccccc3OC2)cc1 | HeLa | Serotype 1B | 22.4 µM |
| Cc1cc(CCCOc2c(Cl)cc(C3=NCCO3)cc2Cl)on1 | - | Serotype 1 | 0.17 µg/mL |
| CN(C)c1nc(C(F)(F)F)nc2c1ncn2Cc1ccc(Br)cc1 | M-HELA | TYPE 1B | 0.03 µM |
| CC(=O)Nc1ccc(Cn2cnc3c(N(C)C)ncnc32)cc1 | M-HELA | Serotype 1B | >50 µM |
| CNC(=O)/C=C(\c1ccccc1)c1ccc2nc(N)c(-c3ccc(F)c(F)c3F)n2c1 | H-HELA | TYPE 14 | 0.17 µg/mL |
| Clc1ccc(C2CCc3ccccc3O2)c(Cl)c1 | HeLa | Serotype 1B | 0.025 µM |
| Cc1cc(CCCOc2c(C)cc(-c3nnn(C)n3)cc2C)on1 | - | Serotype 1 | 0.03 µg/mL |
| O=C1CC(c2ccc(C3=NCCO3)cc2)Oc2ccc(Cl)cc21 | OHIO HELA | TYPE 1B | 5.16 µM |

For reference, 5 entries again:

{"SMILES": "CSCCCN1C(=O)Cc2ccccc2C1=O", "cell line": "HeLa", "strain or isolate": "Serotype 14", "value": "19.6 µM"}
{"SMILES": "O=c1c(Cc2ccccc2)coc2ccccc12", "cell line": "HeLa", "strain or isolate": "TYPE 1B", "value": "4.64 µM"}
{"SMILES": "Cc1ccc(Cn2cnc3c(N(C)C)nc(C(F)(F)F)nc32)c(C)c1", "cell line": "M-HELA", "strain or isolate": "TYPE 1B", "value": "0.11 µM"}
{"SMILES": "N#Cc1ccc(C2COc3ccc(C#N)cc3C2)cc1", "cell line": "HeLa", "strain or isolate": "Serotype 1B", "value": "14.4 µM"}
{"SMILES": "CN(C)c1nc(C(F)(F)F)nc2c1ncn2Cc1ccc([N+](=O)[O-])cc1", "cell line": "M-HELA", "strain or isolate": "Serotype 5", "value": ">10 µM"}